The values that follow come from patent publication US20250325672A1 (priority 2020, published 2025).

Where only a bound is given, the exact number is not on record here.

First the molecules themselves.
B1: BCY15343 (peptide)
peptide: ACPYVAGRGTCLLCA
modifications: not checked

In one assay the target is Biotinylated SARS-CoV-2 (COVID-19) S protein RBD, His, Avitag ™ (Severe acute respiratory syndrome coronavirus 2, UniProt P0DTC2).
Assay: not given
It is filed as binding. Particulars: read-out: Geomean Average KD.
By Kd is commonly meant the constant that tells how readily two partners part at equilibrium. Consider Ac-(SEQ ID NO: 186) [BCY19309], for which the Kd amounted to 186 nM.

As for Ac-(SEQ ID NO: 188) [BCY19533], the Kd stood at 6510 nM.

Ac-(SEQ ID NO: 189) [BCY19534]: the Kd was 5230 nM. Same read-out and setting: the figure for Ac-(SEQ ID NO: 190) [BCY19535] is 565 nM; for Ac-(SEQ ID NO: 191) [BCY19536] it is 7570 nM; for Ac-(SEQ ID NO: 192) [BCY19537] it is 2650 nM. As for Ac-(SEQ ID NO: 193) [BCY19538], the equilibrium dissociation constant (Kd) came out at 2100 nM. Consider Ac-(SEQ ID NO: 194) [BCY19539], for which the Kd was found to be 2080 nM. Same read-out and setting: the figure for Ac-(SEQ ID NO: 195) [BCY19541] is 2170 nM; for Ac-(SEQ ID NO: 196) [BCY19542] it is 1950 nM; for Ac-(SEQ ID NO: 197) [BCY19543] it is 2940 nM. Same read-out and setting: the figure for Ac-(SEQ ID NO: 198) [BCY19544] is 6650 nM; for Ac-(SEQ ID NO: 199) [BCY19545] it is 1570 nM.

Regarding Ac-(SEQ ID NO: 200) [BCY19546], the equilibrium dissociation constant (Kd) is 3520 nM. Consider Ac-(SEQ ID NO: 201) [BCY19547], for which the Kd was determined as 9160 nM.

As for Ac-(SEQ ID NO: 202) [BCY19548], the Kd was 2990 nM. On the same count and under the same terms, the figure for Ac-(SEQ ID NO: 203)-[K(PYA)] [BCY19599] is 61.6 nM; for Ac-(SEQ ID NO: 205)-[K(PYA)] [BCY19638] it is 29.5 nM.

With Ac-(SEQ ID NO: 206)-[K(PYA)] [BCY19639], the Kd stood at 72 nM.

For Ac-(SEQ ID NO: 209)-[K(PYA)] [BCY19654], the Kd is 115 nM.

Regarding Ac-(SEQ ID NO: 210)-[K(PYA)] [BCY19655], the Kd stood at 169 nM. Still for that read-out and setting: the figure for Ac-(SEQ ID NO: 211)-[K(PYA)] [BCY19658] is 96.6 nM.

The target of the next assay is Biotinylated 2019-nCoV (COVID-19) S1 protein (16-685), His, Avitag (SARS-CoV-2), P0DTC2. The experiment in a line: SPR, Biacore T200, geomean.
Details: not given
B1 gave a Kd of 2240 nM.

The next assay addresses wild-type (WT) S1 domain of the SARS-COV-2 Spike Protein (Severe acute respiratory syndrome coronavirus 2, UniProt P0DTC2).
Assay: not given
Format: binding.
Details: not given
The molecule “A-(SEQ ID NO: 22)-A-[Sar6]-[KFl] [BCY15310]” gave a Kd of 199 nM. Same read-out and setting: the same measure for “A-(SEQ ID NO: 37)-A-[Sar6]-[KFl] [BCY15318]”: 717 nM. Still for that read-out and setting: the figure for A-(SEQ ID NO: 80)-A [BCY16313] is 396 nM. On the same count and under the same terms, the figure for A-(SEQ ID NO: 81)-A [BCY16314] is 518 nM. With A-(SEQ ID NO: 82)-A [BCY16315], binding was characterised by a dissociation constant (Kd) of 777 nM. The same measure, in the same setting: the figure for A-(SEQ ID NO: 83)-A [BCY16316] is > 1000 nM; for A-(SEQ ID NO: 84)-A [BCY16318] it is 602 nM; for A-(SEQ ID NO: 85)-A [BCY16319] it is 726 nM. On to A-(SEQ ID NO: 86)-A [BCY16320], for which the Kd worked out at 360 nM. On to A-(SEQ ID NO: 87)-A [BCY16321], for which the Kd was determined as 991 nM.

Turning to A-(SEQ ID NO: 89)-A [BCY16541], the equilibrium dissociation constant (Kd) is > 1000 nM. As for A-(SEQ ID NO: 90)-A [BCY16535], the Kd is > 1000 nM. Regarding A-(SEQ ID NO: 91)-A [BCY16536], the Kd was 424 nM.

Take A-(SEQ ID NO: 92)-A [BCY16537]: the Kd is > 963 nM. On the same count and under the same terms, the same measure for A-(SEQ ID NO: 113)-A [BCY16543]: > 1000 nM; for A-(SEQ ID NO: 114)-A [BCY16542]: 511 nM; for Ac-(SEQ ID NO: 24) [BCY16544]: 921 nM. Still for that read-out and setting: the same measure for “Ac-(SEQ ID NO: 88)-A-[Sar6]-[KFl] [BCY16679]”: 339 nM; for Ac-A-(SEQ ID NO: 22)-A [BCY16538]: 229 nM.

With Ac-A-(SEQ ID NO: 24)-A [BCY16545], the affinity, expressed as Kd, was 641 nM. The same measure, in the same setting: the same measure for Ac-A-(SEQ ID NO: 37)-A [BCY16322]: 722 nM.
